Data as given in PubChem BioAssay AID1259414 (Drosophila RNAi Screening Center, 2018)
The screen tested about 24,000 reagents; below is an unselected part of those that have a named target and a result. Over the whole deposit, about 1,210 (5%) got an active call. 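Inactive calls also include excluded dsRNAs with several or no targets, genes unexpressed in JW18, and well A1, regardless of score.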 Reagents against one gene are numbered here. A plus sign joins genes that one reagent is predicted to hit.

Test: 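Host factors increasing or decreasing Wolbachia levels in cultured fly cells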 (primary screen)
System: Drosophila JW18 cells infected with Wolbachia
Reagent: long dsRNA against Drosophila genes, 0.25 µg dsRNA per well of a 384-well plate
Time to read-out: 5 days
Treatment: cells persistently infected with Wolbachia before knock-down; no added drug
Detection: 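Automated imaging of bacterial rRNA staining divided by host cell count, reported as plate-normalised robust z-score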
Scale: Wolbachia per cell robust z: higher = more Wolbachia per host cell than the plate typical
Rule for the call: 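Hit when robust z is 1.5 or more, or -1.5 or less, in at least two of three replicates; excludes dsRNAs with several or no targets, genes not expressed in JW18 and well A1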

Gene	reagent	Wolbachia per cell robust z, rep 1	Wolbachia per cell robust z, rep 2	Wolbachia per cell robust z, rep 3	outcome
Damm (GeneID 36266)	1	-0.617	0.0819	-2.93	inactive
Ing5 (GeneID 34752)	1	-0.706	-1.04	0.0395	inactive
Ing5 (GeneID 34752)	2	0.291	-0.174	0.865	inactive
CG6592 (GeneID 38687)	1	2.07	1.31	0.936	inactive
Galphas (GeneID 37805)	1	0.26	0.0215	-0.829	inactive
dbo (GeneID 53556)	1	-1.51	-0.156	0.99	inactive
SPR (GeneID 31463)	1	0.253	-1.25	0.406	inactive
SPR (GeneID 31463)	2	0.215	0.307	0.444	inactive
SPR (GeneID 31463)	3	-0.0447	-0.106	-0.442	inactive
MED19 (GeneID 39987)	1	0.774	0.742	1.67	inactive
MED19 (GeneID 39987)	2	-0.701	-0.588	-1.82	inactive
MED19 (GeneID 39987)	3	-1.73	-0.462	-0.867	inactive
CG6867 (GeneID 32782)	1	0.314	-0.699	0.178	inactive
CG6867 (GeneID 32782)	2	0.68	0.848	0.719	inactive
CG12729 (GeneID 31515)	1	1.08	-0.282	-0.597	inactive
CG12729 (GeneID 31515)	2	0.453	1.04	-0.657	inactive
Mkrn1 (GeneID 44131)	1	1.34	2.12	0.937	inactive
Mkrn1 (GeneID 44131)	2	-1.14	-0.807	-0.0892	inactive
Rsf1 (GeneID 34370)	1	-0.308	0.195	0.13	inactive
Rsf1 (GeneID 34370)	2	0.125	0.424	0.575	inactive
Rsf1 (GeneID 34370)	3	1.08	1.31	1.39	inactive
CG31342 (GeneID 41592)	1	0.296	0.137	-0.157	inactive
CG31342 (GeneID 41592)	2	-0.762	-0.154	0.141	inactive
CG18858 + CG31683	1	-0.258	0.825	1.29	inactive
CG18858 + CG31683	2	0.716	0.525	-0.505	inactive
sotv + CG10731	1	0.0358	0.54	0.283	inactive
CG30058 + CG34235 + CG34312	1	-0.466	0.215	0.548	inactive
Cks85A (GeneID 41034)	1	-4.29	-2.61	-3.18	active
frma (GeneID 31464)	1	1.53	0.794	0.294	inactive
frma (GeneID 31464)	2	-4.5	-8.21	-8.9	inactive
HPS4 (GeneID 37009)	1	-2.64	0.668	-1.87	active
Ncoa6 (GeneID 33761)	1	0.86	1.34	0.289	inactive
Ncoa6 (GeneID 33761)	2	-0.535	1.39	0.879	inactive
CG31807 (GeneID 318953)	1	0.421	-0.769	-9.16	inactive
CG13056 (GeneID 50267)	1	0.194	0.203	-0.0911	inactive
CG13056 (GeneID 50267)	2	-0.0231	0.474	-2.59	inactive
stumps (GeneID 41770)	1	0.391	2.29	0.226	inactive
stumps (GeneID 41770)	2	-5.31	0.192	-3.87	active
stumps (GeneID 41770)	3	-0.693	-1.02	-0.845	inactive
CG43117 (GeneID 12798272)	1	-0.519	-1.29	-1.26	inactive
CG43117 (GeneID 12798272)	2	0.473	1.79	0.756	inactive
CG43110 (GeneID 12798330)	1	-1.54	-0.342	-0.368	inactive
CG14406 (GeneID 32421)	1	-5.11	0.433	0.236	inactive
CG14406 (GeneID 32421)	2	0.718	-0.531	-1.73	inactive
stas (GeneID 32737)	1	0.304	-0.347	-0.686	inactive
Erk7 (GeneID 31877)	1	-4.71	1.23	-0.0487	inactive
Erk7 (GeneID 31877)	2	0.0358	-5.7	-3.91	active
Erk7 (GeneID 31877)	3	-2.04	-1.39	0.0944	inactive
Tim17b (GeneID 3355107)	1	0.509	-6.16	-0.394	inactive
CG44004 + CG44005	1	-0.408	-1.96	0.248	inactive
mEFTs (GeneID 35060)	1	-0.133	-0.903	-1.45	inactive
mEFTs (GeneID 35060)	2	-1.89	-0.109	0.415	inactive
CG3355 (GeneID 33667)	1	-0.571	0.519	-0.279	inactive
CG7194 (GeneID 38933)	1	-0.308	0.488	0.44	inactive
aos (GeneID 39833)	1	-0.699	-1.21	-0.978	inactive
aos (GeneID 39833)	2	1.16	0.241	0.31	inactive
CG18754 (GeneID 59145)	1	-3.63	-0.293	-4.58	active
CG7126 (GeneID 42202)	1	0.158	0.0709	0.867	inactive
CG7126 (GeneID 42202)	2	-1.73	-0.321	-0.458	inactive
CG7126 (GeneID 42202)	3	-1.39	0.366	0.232	inactive
CNT1 + CG13742	1	0.435	0.554	-2.27	inactive
CNT1 + CG13742	2	-1.46	-0.526	-0.531	inactive
Imp (GeneID 32009)	1	-0.758	0.0147	1.26	inactive
Imp (GeneID 32009)	2	0.446	-1.75	-0.196	inactive
Imp (GeneID 32009)	3	-0.146	-0.302	-1.08	inactive
Imp (GeneID 32009)	4	-2.49	-0.78	-1.18	inactive
dbe (GeneID 33269)	1	1.19	-0.121	-0.723	inactive
Os-C (GeneID 40942)	1	0.131	0.0705	-0.176	inactive
Os-C (GeneID 40942)	2	-0.934	-0.738	-0.107	inactive
